Anti-infective test results gathered from many reports (values: NIAID ChemDB through PubChem).

Shared fields: enzyme or target tests

ICn: concentration for n% inhibition. Rows are shuffled and stem from different studies. Inhibition is in % at the dose shown (toxicity tests: loss of growth or viability). a–b is a range or a potency band. An empty or dashed field is not shown.

SMILES,measure,protein,agent,dose,value
O=C(N[C@H](C(=O)O)c1ccc(O)cc1)c1cnn2c(C3CCCCC3)c(-c3ccc(F)cc3)cnc12,IC50,RNA-dependent RNA polymerase,Hepatitis C virus,-,<1 µM
CNC(=O)c1c(-c2ccc(F)cc2)oc2cc(N(CCO)S(C)(=O)=O)c(OC(C)C)cc12,IC50,Nonstructural protein 5B,Hepatitis C virus,-,≤0.5 µM
Cc1ccc(S(=O)(=O)Nc2cc(-c3ccccc3)sc2C(=O)NC2CCC2)cc1,IC50,NS3 ATPase,Hepatitis C virus,-,5–20 µM
Cc1cc(C)n2nc(C(=O)O)cc2n1,IC50,RNA-dependent RNA polymerase,Hepatitis C virus,-,>10 µM
CC(C)N(C(=O)c1ccc(Cl)cc1Cl)c1cc(-c2nccs2)sc1C(=O)O,IC50,NS3 ATPase,Hepatitis C virus,-,<5 µM
O=C(Cc1cccnc1)Nc1ccsc1-c1nc(C(=O)O)c(O)c(=O)[nH]1,IC50,HCV polymerase,Hepatitis C virus,-,<25 µM
Cc1ccc(S(=O)(=O)Nc2cc(-c3ccc(CO)cc3)sc2C(=O)O)c(C)c1,IC50,NS3 ATPase,Hepatitis C virus,-,<5 µM
CCOC(=O)C1=CN(N2CCN(c3nc(Nc4ccc5cn[nH]c5c4)nc(OC)n3)CC2)C(SC)N=C1,inhibition,DNA polymerase,Hepatitis B virus,0.1 µg/mL,17%
O=C(O)c1nc(-c2sccc2NC(=O)C(NCc2ccccc2)c2ccccc2)[nH]c(=O)c1O,IC50,HCV polymerase,Hepatitis C virus,-,<25 µM
COc1nc(Nc2ccc3[nH]ncc3c2)nc(NN2CCOCC2)n1,inhibition,Nonstructural protein 5B,Hepatitis C virus,0.1 µg/mL,15%
COc1ccc(-c2cccs2)c(-c2ccc3cc(-c4nc5cc(C(=O)O)ccc5n4C4CCCCC4)ccc3n2)c1,inhibition,NS5B polymerase,Hepatitis C virus,100 µM,99.37%
O=C(Nc1ccsc1-c1nc(C(=O)O)c(O)c(=O)[nH]1)c1cc(OCc2ccccc2)cs1,IC50,HCV polymerase,Hepatitis C virus,-,<25 µM
Cc1c(OCc2ccccc2)ccc(-c2ccc3cc(-c4nc5cc(C(=O)O)ccc5n4C4CCCCC4)ccc3n2)c1O,inhibition,NS5B polymerase,Hepatitis C virus,100 µM,101%
Cc1cccc(NC(=O)Nc2cccc(-c3nc(C(=O)O)c(O)c(=O)[nH]3)c2)c1,IC50,HCV polymerase,Hepatitis C virus,-,<100 µM
COc1ccc(-c2cc(-c3cccc(Cl)c3)nc3cc(C(=O)O)nn23)cc1,IC50,RNA-dependent RNA polymerase,Hepatitis C virus,-,>10 µM
O=C(NC(CC1CCCCC1)C(=O)O)c1ccc2c(c1)nc(-c1ccc3nc(-c4ccccc4)cnc3c1)n2C1CCCCC1,inhibition,NS5B polymerase,Hepatitis C virus,100 µM,97%
COc1nc(NCCN2CCOCC2)nc(Nc2ccc3[nH]ncc3c2)n1,inhibition,DNA polymerase,Hepatitis B virus,0.1 µg/mL,41%
CNC(=O)c1c(-c2ccc(F)cc2)oc2cc(NS(C)(=O)=O)c(-c3ccco3)cc12,IC50,Nonstructural protein 5B,Hepatitis C virus,-,≤0.5 µM
O=C(O)c1sc(-c2ccccc2)cc1N(Cc1ccc(C(F)(F)F)cc1)C(=O)C1CCCCC1,IC50,NS3 ATPase,Hepatitis C virus,-,<5 µM
CNC(=O)c1c(-c2ccc(F)cc2)oc2cc(-c3c(C)noc3C)c(OC(C)C)cc12,IC50,Nonstructural protein 5B,Hepatitis C virus,-,≤0.5 µM
CC(C)N(C(=O)c1ccc(Cl)cc1)c1cc(-c2ccccc2)sc1C(=O)O,IC50,NS3 ATPase,Hepatitis C virus,-,<5 µM
O=C(O)c1cc2nc(-c3ccc(Cl)cc3)cc(-c3ccc(Cl)c(Cl)c3)n2n1,IC50,RNA-dependent RNA polymerase,Hepatitis C virus,-,>10 µM
CC(C)CC(=O)N(Cc1ccccc1)c1cc(-c2ccccc2)sc1C(=O)O,IC50,NS3 ATPase,Hepatitis C virus,-,<5 µM
COc1ccc(-c2cnc(OC)nc2OC)c(-c2ccc3cc(-c4nc5cc(C(=O)O)ccc5n4C4CCCCC4)ccc3n2)c1,inhibition,NS5B polymerase,Hepatitis C virus,33 µM,99.62%
CNC(=O)c1c(-c2ccc(F)cc2)oc2cc(N(C(C)=O)S(C)(=O)=O)c(OC)cc12,IC50,Nonstructural protein 5B,Hepatitis C virus,-,≤0.5 µM
COc1nc(NCCCN2CCCC2=O)nc(Nc2ccc3cn[nH]c3c2)n1,inhibition,DNA polymerase,Hepatitis B virus,0.1 µg/mL,30%
O=C(O)c1ccc2c(c1)nc(-c1ccc3nc(-c4cc5c(cc4-c4ccc(Cl)cc4)OCCCO5)ccc3c1)n2C1CCCCC1,inhibition,NS5B polymerase,Hepatitis C virus,100 µM,100%
O=C(O)c1cc2nc(-c3ccc(C(F)(F)F)cc3)cc(-c3ccc(Cl)c(Cl)c3)n2n1,IC50,RNA-dependent RNA polymerase,Hepatitis C virus,-,>10 µM
O=C(O)c1ccc2nc(-c3ccc4nc(-c5ccccc5-c5ccc(Cl)cc5)ccc4c3)[nH]c2c1,inhibition,NS5B polymerase,Hepatitis C virus,100 µM,67.52%
COc1ccccc1-c1cc(-c2ccc(C(F)(F)F)cc2)nc2cc(C(=O)O)nn12,IC50,RNA-dependent RNA polymerase,Hepatitis C virus,-,>10 µM
COC(=O)c1nc(-c2cscc2NC(=O)NS(=O)(=O)c2ccccc2Cl)[nH]c(=O)c1O,IC50,HCV polymerase,Hepatitis C virus,-,<50 µM
O=C(O)c1cc2nc(-c3ccc(OCc4ccccc4)cc3)cc(-c3ccccc3)n2n1,IC50,RNA-dependent RNA polymerase,Hepatitis C virus,-,>10 µM
COc1ccc(-c2ccc(F)cc2)c(-c2ccc3cc(-c4nc5cc(C(=O)O)ccc5n4C4CCCCC4)ccc3n2)c1,inhibition,NS5B polymerase,Hepatitis C virus,33 µM,100%
COc1nc(Nc2ccc3cn[nH]c3c2)nc(N2CCOCC2)n1,inhibition,Nonstructural protein 5B,Hepatitis C virus,10 µg/mL,66%
O=C(O)c1sc(-c2ccccc2)cc1N(Cc1ccc(Cl)cc1)C(=O)C1CCC1,IC50,NS3 ATPase,Hepatitis C virus,-,5–20 µM
O=C(NCc1cccs1)Nc1cccc(-c2nc(C(=O)O)c(O)c(=O)[nH]2)c1,IC50,HCV polymerase,Hepatitis C virus,-,<100 µM
Cc1ncsc1CCOc1cccc(-c2cnc3c(-c4nn[nH]n4)cnn3c2C2CCCCC2)c1,IC50,RNA-dependent RNA polymerase,Hepatitis C virus,-,1–10 µM
NC(=O)[C@H](Cc1ccccc1)NC(=O)c1ccc2cc(-c3nc4cc(C(=O)O)ccc4n3C3CCCCC3)ccc2n1,inhibition,NS5B polymerase,Hepatitis C virus,100 µM,98.58%
O=C(CCc1c(F)cccc1Cl)Nc1ccccc1-c1nc(C(=O)O)c(O)c(=O)[nH]1,IC50,HCV polymerase,Hepatitis C virus,-,<100 µM

The last 2 rows once more:

| SMILES | measure | protein | agent | dose | value |
|---|---|---|---|---|---|
| NC(=O)[C@H](Cc1ccccc1)NC(=O)c1ccc2cc(-c3nc4cc(C(=O)O)ccc4n3C3CCCCC3)ccc2n1 | inhibition | NS5B polymerase | Hepatitis C virus | 100 µM | 98.58% |
| O=C(CCc1c(F)cccc1Cl)Nc1ccccc1-c1nc(C(=O)O)c(O)c(=O)[nH]1 | IC50 | HCV polymerase | Hepatitis C virus | - | <100 µM |